PubChem BioAssay AID1259414 – Drosophila RNAi Screening Center | 2018

Test: 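Host factors increasing or decreasing Wolbachia levels in cultured fly cells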 (primary screen)
Cell system: Drosophila JW18 cells infected with Wolbachia
Reagent: long dsRNA against Drosophila genes, 0.25 µg dsRNA per well of a 384-well plate
Duration: 5 days
Conditions: cells persistently infected with Wolbachia before knock-down; no added drug
Measured: 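Automated imaging of bacterial rRNA staining divided by host cell count, reported as plate-normalised robust z-score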
Scale: Wolbachia per cell robust z: higher = more Wolbachia per host cell than the plate typical
Hit rule: 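Hit when robust z is 1.5 or more, or -1.5 or less, in at least two of three replicates; excludes dsRNAs with several or no targets, genes not expressed in JW18 and well A1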
The screen tested about 24,000 reagents; this is an unselected part of those that have a named target and a result. Over the whole deposit, about 1,210 (5%) are marked active. 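Inactive calls also include excluded dsRNAs with several or no targets, genes unexpressed in JW18, and well A1, regardless of score.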 Reagents against one gene are numbered here.

| gene knocked down | reagent no. | Wolbachia per cell robust z, rep 1 | Wolbachia per cell robust z, rep 2 | Wolbachia per cell robust z, rep 3 | outcome |
| --- | --- | --- | --- | --- | --- |
| Dcps (Decapping enzyme, scavenger) | 1 | -2.43 | -2.92 | -0.158 | active |
| CG3906 | 1 | -5.29 | -0.607 | -3.3 | inactive |
| CG3906 | 2 | -0.138 | -0.202 | 0.554 | inactive |
| Nhe1 (Na[+]/H[+] hydrogen exchanger 1) | 1 | 1.26 | 1.28 | -0.611 | inactive |
| Bdp1 (B double prime 1) | 1 | -0.0914 | 1.28 | -0.146 | inactive |
| Bdp1 (B double prime 1) | 2 | -0.0679 | 1.37 | 1.2 | inactive |
| Wdr24 (WD repeat domain 24) | 1 | 0.304 | -0.104 | -1.74 | inactive |
| CG2519 | 1 | -1.86 | 0.388 | 0.473 | inactive |
| jim | 1 | -1.89 | 0.216 | 0.133 | inactive |
| jim | 2 | 0.462 | 0.0227 | -0.415 | inactive |
| CG10919 | 1 | -0.401 | -1.46 | 0.997 | inactive |
| Chmp1 (Charged multivesicular body protein 1) | 1 | -0.0163 | 0.502 | 0.79 | inactive |
| Chmp1 (Charged multivesicular body protein 1) | 2 | -1.75 | 0.0048 | -1.37 | inactive |
| Chmp1 (Charged multivesicular body protein 1) | 3 | 1.01 | 1.04 | 1.22 | inactive |
| CG12009 | 1 | 0.249 | 1.09 | -0.54 | inactive |
| CG12009 | 2 | -0.0879 | -0.562 | 0.875 | inactive |
| Ehbp1 (Eps15 homology domain containing protein-binding protein 1) | 1 | 1.2 | 0.333 | 1.65 | inactive |
| Ehbp1 (Eps15 homology domain containing protein-binding protein 1) | 2 | 1.89 | 0.306 | -0.348 | inactive |
| Sap47 (Synapse-associated protein 47kD) | 1 | 0.49 | 0.52 | 0.0841 | inactive |
| Sap47 (Synapse-associated protein 47kD) | 2 | 1.7 | 0.508 | 0.905 | inactive |
| Rab30 | 1 | -1.34 | -0.349 | -4.19 | inactive |
| Rab30 | 2 | -1.78 | 0.017 | -0.395 | inactive |
| His2Av (Histone H2A variant) | 1 | -2.06 | 0.459 | -0.188 | inactive |
| pim (pimples) | 1 | 3.04 | 1.9 | 0.829 | active |
| Btnd (Biotinidase) | 1 | -0.74 | -3.68 | 0.72 | inactive |
| Btnd (Biotinidase) | 2 | -2.18 | -0.538 | 0.731 | inactive |
| Btnd (Biotinidase) | 3 | 0.0966 | -1.99 | -3.12 | inactive |
| Cyp4ae1 (Cytochrome P450 4ae1) | 1 | -1.83 | -5.03 | 0.165 | inactive |
| Cyp4ae1 (Cytochrome P450 4ae1) | 2 | -0.983 | -0.881 | -2.95 | inactive |

Not a retest: an excerpt of the list.
| gene knocked down | reagent no. | Wolbachia per cell robust z, rep 1 | Wolbachia per cell robust z, rep 2 | Wolbachia per cell robust z, rep 3 | outcome |
| --- | --- | --- | --- | --- | --- |
| CG3906 | 1 | -5.29 | -0.607 | -3.3 | inactive |
| CG3906 | 2 | -0.138 | -0.202 | 0.554 | inactive |
| Nhe1 (Na[+]/H[+] hydrogen exchanger 1) | 1 | 1.26 | 1.28 | -0.611 | inactive |
| Bdp1 (B double prime 1) | 1 | -0.0914 | 1.28 | -0.146 | inactive |
